Anti-infective test results gathered from many reports (values: NIAID ChemDB through PubChem).

Shared fields: tests in culture; agent: Encephalitozoon intestinalis

ECn is the concentration giving n% inhibition of infection, replication or growth.

SMILES	cells	read-out	dose	result
CCCSc1ccc2nc(NC(=O)OC)[nH]c2c1		MIC		0.008 µg/mL
CCCS(=O)c1ccc2nc(NC(=O)OC)[nH]c2c1	E6	EC50		0.003 µg/mL
CCOC(=O)Nc1cc2c(c(N)n1)N=C(c1cccc(OC)c1)CS2	RK-13	inhibition	0.001 µg/mL	31.9%
COC(=O)Nc1nc2ccc(C(=O)c3cccs3)cc2[nH]1	E6	EC50		0.001 µg/mL
O=C(O)c1cn(C2CC2)c2cc(N3CCNCC3)c(F)cc2c1=O		MIC50		84 µM
O=C(NC(=O)c1c(F)cccc1F)Nc1cc(Cl)c(OC(F)(F)C(F)C(F)(F)F)cc1Cl	RK-13	inhibition	5 µg/mL	54.1%
CO[C@H]1[C@@H](OC(=O)/C=C/C=C/C=C/C=C/C(=O)O)CC[C@@]2(CO2)[C@@H]1[C@@]1(C)O[C@@H]1CC=C(C)C		EC50		≥0.05 µM
COC(=O)Nc1nc2ccccc2[nH]1	E6	EC50		0.007 µg/mL
CCOC(=O)Nc1cc2[nH]c(-c3ccc(OC)cc3)nc2c(NC(c2ccccc2)c2ccccc2)n1	RK-13	inhibition	0.1 µg/mL	20.9%
O=c1ccc2cccc(O)c2[nH]1		MIC50		53 µM
COc1ccc(OC)c(NCc2cnc3nc(N)nc(N)c3c2C)c1	RK-13	inhibition	0.1 µg/mL	28.3%
COC(=O)Nc1nc2ccc(Sc3ccccc3)cc2[nH]1	E6	EC50		0.01 µg/mL
CCCSc1ccc2nc(NC(=O)OC)[nH]c2c1		MIC50		0.011 µg/mL
O=C1N[C@@H]2C(c3cc4c(cc31)OCO4)[C@@H](O)[C@H](O)[C@@H](O)[C@H]2O	RK-13	EC50		0.2 µM
c1ccc2[nH]c(-c3cscn3)nc2c1	E6 HOST CELLS	EC50		>3 µg/mL
CO[C@@H]1[C@@H](OC(N)=O)[C@@H](O)[C@H](Oc2ccc3c(O)c(NC(=O)c4ccc(O)c(CC=C(C)C)c4)c(=O)oc3c2C)OC1(C)C		MIC50		>100 µM

Repeating the final 2 entries:

c1ccc2[nH]c(-c3cscn3)nc2c1 ; cells: E6 HOST CELLS ; read-out: EC50 ; result: >3 µg/mL
CO[C@@H]1[C@@H](OC(N)=O)[C@@H](O)[C@H](Oc2ccc3c(O)c(NC(=O)c4ccc(O)c(CC=C(C)C)c4)c(=O)oc3c2C)OC1(C)C ; read-out: MIC50 ; result: >100 µM

Percent inhibition refers to the dose given; in toxicity tests it is the harm to the cells. An empty or dashed field is not shown. MIC50, MIC90 and the like: level of inhibition, or share of isolates inhibited. Rows are shuffled and stem from different studies.